Pooled drug test results. Numbers come from NIAID ChemDB, via PubChem.

Common to all: growth or infection tests; species: Hepatitis B virus

Percent inhibition refers to the dose given; in toxicity tests it is the harm to the cells.

| structure | measure | read by | cells | tested at | strain or isolate | result |
|---|---|---|---|---|---|---|
| CCOC(=O)CC1COP(=O)(CO[C@H](C)Cn2cnc3c(NC(=O)CC)ncnc32)OC1 | inhibition | PCR | HepaRG | 1 µM | Genotype D | ≤30% |
| Nc1ncnc2c1ncn2CC(CF)OCP(=O)(O)O | EC50 |  | HB611 |  |  | 12 µM |
| C[C@H](Cn1cnc2c(N)ncnc21)OCP1(=O)OCC(CC(=O)OC2CCCC2)CO1 | inhibition | PCR | PHH | 1 µM | Genotype D | ≤30% |
| CC[C@H]1OC(O[C@@H]2[C@@H]3[C@](C)(CC[C@H]2C(C)C)[C@H](O)CC[C@]3(C)O)[C@H](O)[C@@H](O)[C@@H]1O | EC50 | ELISA / antigen | HepG2.2.15 |  |  | 9 µM |
| Cc1cn(C[C@@H](CO)OCP(=O)(O)O)c(=O)[nH]c1=O | EC50 |  | HB611 |  |  | >400 µM |
| Nc1ccn([C@@H]2CS[C@H](CO)O2)c(=O)n1 | inhibition | PCR | HepG2 2.2.15 | 1 µM |  | 0.26% |
| Nc1nc(N)c2ncn(CC(CO)OCP(=O)(O)O)c2n1 | EC50 |  | HB611 |  |  | 1.3 µM |
| CN(C)CCCOc1ccc2nc(SCc3ccccc3)n(Cc3ccco3)c(=O)c2c1 | inhibition | PCR | HepG2 2.2.15 | 0.8 µM |  | 67.31% |
| Nc1ccn(CC(CF)OCP(=O)(O)O)c(=O)n1 | EC50 |  | HB611 |  |  | 200 µM |
| COc1cc2oc(=O)ccc2cc1O | EC50 | PCR | HepG2.2.15 |  |  | 762 µM |
| CC1=C(O)C(=O)C=C2C1=CC=C1[C@@]2(C)CC[C@@]2(C)[C@@H]3C[C@](C)(C(=O)N(C)C)CC[C@]3(C)CC[C@]12C | inhibition | PCR | HepG2 2.2.15 | 25 µM |  | 48.5% |
| O=c1ccc2ccc(O)cc2o1 | EC50 | ELISA / antigen | HepG2.2.15 |  |  | 717 µM |
| Nc1ccn([C@@H]2CS[C@H](CO)O2)c(=O)n1 | inhibition | PCR | HepG2 2.2.15 | 25 µM |  | 89.1% |
| Nc1nc(N)c2ncn([C@H]3CO[C@@H](CO)O3)c2n1 | EC50 |  |  |  | M550V | 36 µM |
| C=C1CC[C@@H](O)[C@]2(C)CC[C@@H](C(C)C)[C@H](O)[C@@H]12 | EC50 | PCR | HepG2.2.15 |  |  | 19.7 µM |
| CC(C)OC(=O)CCC1COP(=O)(CO[C@H](C)Cn2cnc3c(NC(=O)c4ccccc4)ncnc32)OC1 | inhibition | PCR | PHH | 1 µM | Genotype D | 50–80% |
| CCC(CCC(C)C1CCC2C3C[C@@H](O)[C@@]4(O)C[C@@H](O)CCC4(C)C3CCC12C)C(C)C | inhibition | antigen | HepG2 2.2.15 | 6.25 µg/mL |  | 11.4% |
| CCCNC(=O)[C@]1(C)CC[C@]2(C)CC[C@]3(C)C4=CC=C5C(=CC(=O)C(O)=C5C)[C@]4(C)CC[C@@]3(C)[C@@H]2C1 | inhibition | PCR | HepG2 2.2.15 | 25 µM |  | 17.2% |
| Nc1ccn(C[C@@H](CO)OCP(=O)(O)O)c(=O)n1 | EC50 |  | HB611 |  |  | 29 µM |
| Nc1ccn([C@@H]2CS[C@H](CO)O2)c(=O)n1 | EC50 |  | HepG2 |  | Mutations L526M M550V | 86.2 µM |
| Nc1ccn([C@@H]2CS[C@H](CO)O2)c(=O)n1 | EC50 |  |  |  | L526M | 0.8 µM |
| COc1ccc(Sc2nc(N)nc3c2ncn3CCOCP(=O)(OCC(F)(F)F)OCC(F)(F)F)cc1 | EC50 |  | Huh7 |  | Mutation M552I | 2.6 µM |
| O=C1C[C@@H](c2ccc(O)cc2)Oc2cc(OC3O[C@H](CO)[C@@H](O)[C@H](O)[C@H]3O)cc(O)c21 | EC50 | ELISA / antigen | HepG2.2.15 |  |  | 390 µM |
| Nc1nc2c(ncn2CCC(CO)CO)c(=O)[nH]1 | inhibition |  | HepG2 | 50 µM | WILD TYPE | 84% |
| Nc1ncnc2c1ncn2C[C@@H](CO)OCP(=O)(O)O | EC50 |  | HB611 |  |  | 1.1 µM |
| CO[C@@H]1O[C@H](COC(=O)/C=C/c2ccc(O)c(O)c2)[C@@H](O)[C@H](O)[C@H]1O | EC50 | PCR | HepG2.2.15 |  |  | 6.84 µM |
| CC1COP(=O)(CO[C@H](C)Cn2cnc3c(N)ncnc32)OC1 | inhibition | PCR | HepaRG | 1 µM | Genotype D | >80% |
| Cc1cn([C@H]2O[C@@H](CO)[C@H](O)[C@H]2F)c(=O)[nH]c1=O | inhibition |  | HepG2 | 0.02 µM | WILD TYPE | 54% |

The last 3 rows once more:

structure | measure | read by | cells | tested at | strain or isolate | result
CO[C@@H]1O[C@H](COC(=O)/C=C/c2ccc(O)c(O)c2)[C@@H](O)[C@H](O)[C@H]1O | EC50 | PCR | HepG2.2.15 |  |  | 6.84 µM
CC1COP(=O)(CO[C@H](C)Cn2cnc3c(N)ncnc32)OC1 | inhibition | PCR | HepaRG | 1 µM | Genotype D | >80%
Cc1cn([C@H]2O[C@@H](CO)[C@H](O)[C@H]2F)c(=O)[nH]c1=O | inhibition |  | HepG2 | 0.02 µM | WILD TYPE | 54%

ECn: concentration that inhibits the pathogen or its effect by n%. a–b is a range or a potency band. Neighbouring rows are from separate reports. An empty or dashed field is not shown.